Pooled drug test results. Numbers come from NIAID ChemDB, via PubChem.

All rows: cytotoxicity tests; cell line: HEL; measure: CC50

CCn is the concentration with n% toxicity to the cells. Neighbouring rows are from separate reports.

structure,result
Nc1nc2c(ncn2COC(CO)CO)c(=O)[nH]1,>196 µM
Nc1ncnc2c1ncn2[C@@H]1C=C(CO)[C@@H](O)[C@H]1O,16 µg/mL
C[C@@H](NC(=O)N1C(=O)C[C@@]1(Cc1ccccc1)C(=O)O)c1ccccc1,>200 µM
CCCCCn1cc2cc(CCCC)oc2nc1=O,>200 µM
OC[C@H]1CC(n2cnc3c(NC4CC4)ncnc32)C[C@@H]1CO,>200 µg/mL
Cc1cccn2c(CSCc3ccccc3)cnc12,8 µg/mL
CC(=O)OCCOCN1c2nc(Cc3ccccc3)[nH]c2C(N)=NS1(=O)=O,>50 µg/mL
COc1cc(CS(=O)(=O)c2cccc[n+]2[O-])cc(OC)c1OC,51 µg/mL
Nc1ncc2ncn(C[C@H](CF)OCP(=O)(O)O)c2n1,>600 µM
CCCCCc1cc2cn(COCCO)c(=O)nc2[nH]1,>200 µM
Cc1ccc(CSc2ccccn2)cc1C,5.6 µg/mL
CC1=CC(CO)(CO)C[C@H]1n1ccc(N)nc1=O,>100 µg/mL
COc1cccnc1SCc1cc(C)ccc1C,>20 µg/mL
C[C@H](NC(=O)N1C(=O)C[C@]1(Cc1ccccc1)C(=O)O)c1ccccc1,>200 µM
O=C(OCCOCN1c2ccccc2C(=O)N(Cc2ccccc2)S1(=O)=O)c1ccccc1,17 µg/mL
Cc1cccn2c(C3OCCO3)cnc12,>291 µM
CCCCCCCC#Cc1c[nH]c(=O)[nH]c1=O,67 µM
Cc1ccc(CSCc2cnc3c(Br)cc(Br)c(C)n23)cc1,>50 µg/mL
C[C@@H](NC(=O)N1C(=O)C[C@]1(Cc1ccccc1)C(=O)O)c1ccccc1,>200 µM
NC1=NS(=O)(=O)N(Cc2ccccc2)c2nc[nH]c21,>50 µg/mL
O=S(Cc1ccccc1)c1c(Cl)ccc[n+]1[O-],3.7 µg/mL
Nc1ncnc2c1ncn2C[C@@H](CO)OCP(=O)(O)O,62 µM
Nc1nc2c(ncn2CC(CO)OCP(=O)(O)O)c(=O)[nH]1,10 µg/mL
Cc1c(Br)cc(Br)c2ncc(CSCc3cccs3)n12,>50 µg/mL
CCCc1ccc(C#CC#Cc2cn([C@H]3C[C@H](O)[C@@H](CO)O3)c(=O)[nH]c2=O)cc1,52 µM
CCCCCCCCC#Cc1cc2cn(COCCO)c(=O)nc2o1,42 µM
Nc1ncn(C[C@H](CO)OCP(=O)(O)O)c(=O)n1,≥140 µg/mL
O=c1[nH]c(=O)n([C@H]2C[C@H](O)[C@@H](CO)O2)cc1C#CC#Cc1ccc(OC(F)(F)F)cc1,55 µM
CCCCc1cc2cnc(=O)[nH]c2o1,>200 µM
Nc1ncnc2c1ncn2[C@@H]1O[C@H](CO)[C@H]1CO,118 µg/mL
O=c1[nH]c(=O)n([C@@H]2C[C@H](CO)C[C@H]2CO)cc1I,>200 µg/mL
CC(C)CCOCCCCCCCCCc1cc2cn([C@H]3C[C@H](O)[C@@H](CO)O3)c(=O)nc2o1,>200 µM
CCCCCCCC#Cc1cc2cn(COCCO)c(=O)nc2o1,>50 µM
CCCCCCC#Cc1cn(S(=O)(=O)c2ccc(C)cc2)c(=O)[nH]c1=O,63 µM
C[C@H](NC(=O)C1(Cc2ccccc2)CCN1C(=O)OCc1ccccc1)C(N)=O,124 µM
O=c1[nH]c(=O)n([C@H]2C[C@H](O)[C@@H](CO)O2)cc1-c1ccc(Cl)s1,>50 µg/mL
O=c1nc2oc(CCCCCCCCCOCCCCCl)cc2cn1[C@H]1C[C@H](O)[C@@H](CO)O1,>200 µM
Cc1c(Br)cc(Br)c2ncc(CSCc3cccc(C(F)(F)F)c3)n12,>50 µg/mL
CC(C)CS[C@@H]1C[C@H](n2cnc3c(N)ncnc32)[C@@H](O)[C@H]1O,>200 µg/mL
CC(=O)OCCOCN1c2ccccc2C(=O)NS1(=O)=O,>200 µg/mL
C#Cc1cn(S(=O)(=O)c2ccc(C)cc2)c(=O)[nH]c1=O,29 µM
O=C(COc1cccc2ccccc12)NN=Cc1ccc([N+](=O)[O-])cc1,14.2 µg/mL
CCCCCCCCCc1cc2cn([C@H]3C[C@H](O)[C@@H](CO)O3)c(=O)nc2s1,>20 µM
O=C(O)CP(=O)(O)O,344 µM
O=C(COc1cccc2ccccc12)NN=Cc1ccc(F)cc1,71.6 µg/mL
O=[N+]([O-])c1ccc(SCc2ccccc2)nc1,>20 µg/mL
O=c1[nH]cnc2c1ncn2C1C[C@H](CO)[C@@H](CO)C1,>200 µg/mL
Cc1ccc[n+]([O-])c1S(=O)(=O)C(C)c1cccc([N+](=O)[O-])c1C,96 µg/mL
Cc1cc(C#CC#Cc2cn([C@H]3C[C@H](O)[C@@H](CO)O3)c(=O)[nH]c2=O)ccc1F,45 µM
Nc1ncnc2c1ccn2[C@@H]1C[C@H](O)[C@@H](O)[C@H]1O,>200 µg/mL
O=C1NS(=O)(=O)N(COCc2ccccc2)c2ccccc21,>50 µg/mL
CCCCCCCCCCc1cc2cn(COCCO)c(=O)nc2o1,>200 µM
Nc1nc2c(ncn2COC(CO)CO)c(=O)[nH]1,100 µg/mL
Nc1nc2c(ncn2C[C@]2(CO)C[C@H]2CO)c(=O)[nH]1,37 µg/mL
Cc1ccc(C)c(CS(=O)(=O)c2cccc(C)[n+]2[O-])c1,≥100 µg/mL
Nc1nc(N)c2ncn(CCOCP(=O)(O)O)c2n1,129 µM
Nc1ccn(C[C@H]2COP(=O)(O)CO2)c(=O)n1,720 µM
Cc1ccc(C)c(CS(=O)(=O)c2cccc[n+]2[O-])c1,39 µg/mL
Cc1cccn2c(C3SCCS3)cnc12,122 µM
CCCCCCCCCCc1cc2cn(C3CCOC3)c(=O)nc2o1,148 µM
C[C@@H](Cn1cnc(N)nc1=O)OCP(=O)(O)O,>50 µg/mL
CCCCc1cc2cn(C(CC)CC)c(=O)nc2o1,>200 µM
CCCCCCCc1nc2c(N)ncnc2n1[C@H]1C[C@H](O)[C@@H](CO)O1,13 µg/mL
CCCCCCc1cc2cn([C@H]3C[C@H](O)[C@@H](CO)O3)c(=O)nc2s1,>200 µM
Cc1cn([C@@H]2O[C@H](CO)[C@@H](O)[C@@H]2F)c(=O)[nH]c1=O,1 µg/mL
C#Cc1nc2c(N)ncnc2n1[C@H]1C[C@H](O)[C@@H](CO)O1,2 µg/mL
Cc1ccc(C)c(C(C)S(=O)c2cccc[n+]2[O-])c1,1.6 µg/mL
Cc1ccn2c(C3OCCS3)cnc2c1,>266 µM
CCCCCCCCCCc1cc2cn(COCCO)c(=O)nc2[nH]1,32 µM
Cc1ccc(C)c(C(CCCCCCBr)S(=O)(=O)c2cccc[n+]2[O-])c1,7.4 µg/mL
CCCCCCCc1cc2cn(C3CCCO3)c(=O)nc2o1,46 µM
Cc1cn([C@@H]2OC(O[Si](C)(C)C(C)(C)C)C3(OS(=O)(=O)C=C3NCCC(=O)OCc3ccccc3)C2O[Si](C)(C)C(C)(C)C)c(=O)n(C)c1=O,>200 µM
O=c1[nH]c(=O)c2ncn([C@@H]3O[C@H](CO)[C@H]3CO)c2[nH]1,327 µg/mL
Cc1c(Br)cc(Br)c2ncc(CSCc3ccc(F)cc3)n12,>50 µg/mL
Cc1ccc(C)c(C(Cl)S(=O)(=O)c2ccccn2)c1,38 µg/mL
Nc1ncnc2c1ncn2C[C@H](CF)OCP(=O)(O)O,>150 µM
CCCc1nc2c(N)ncnc2n1[C@H]1C[C@H](O)[C@@H](CO)O1,170 µg/mL
C[C@@H](NC(=O)C1(Cc2ccccc2)CCN1C(=O)OCc1ccccc1)C(N)=O,50 µM
O=C(COc1cccc2ccccc12)NN=Cc1ccccc1Br,100 µg/mL
CC(C)(C)OC(=O)C1(Cc2ccccc2)CC(=O)N1C(=O)OCc1ccccc1,36 µM
Nc1nc2c(ncn2COC(CO)CO)c(=O)[nH]1,390 µM
CC1=CC(CO)(CO)C[C@H]1n1cnc2c(N)ncnc21,>100 µg/mL
Cc1ccc(C)c(C(C)S(=O)(=O)c2cccc(Cl)[n+]2[O-])c1,4.5 µg/mL
CCCCC#Cc1cn(S(=O)(=O)c2ccc(C)cc2)c(=O)[nH]c1=O,61 µM
N#Cc1ccccc1CS(=O)(=O)c1cccc[n+]1[O-],15 µg/mL
Nc1nc(N)c2ncn(C[C@H](CF)OCP(=O)(O)O)c2n1,>600 µM
O=[N+]([O-])c1ccc[n+]([O-])c1SCc1ccccc1,31 µg/mL
O=C(O)P(=O)(O)O,667 µM
CC(=NNC(=O)COc1cccc2ccccc12)c1ccc(Cl)cc1,7.1 µg/mL
O=c1[nH]c(=O)n([C@@H]2C[C@H](O)[C@@H](CO)O2)cc1-c1ccco1,110 µg/mL
Cc1c(Br)cc(Br)c2ncc(CSCc3ccc(Cl)cc3)n12,>50 µg/mL
Nc1nc2c(ncn2C[C@H](CF)OCP(=O)(O)O)c(=O)[nH]1,236 µM
Nc1ncnc2c1ncn2[C@@H]1C=C(CCl)[C@@H](O)[C@H]1O,9 µg/mL
CCCCCCCCCCCc1cc2cn(COCCO)c(=O)nc2[nH]1,41 µM
O=C1NS(=O)(=O)N(COCCO)c2ccccc21,112 µg/mL
O=c1[nH]c(=O)n([C@H]2C[C@H](O)[C@@H](CO)O2)cc1-c1cc(Br)no1,>50 µg/mL
CC(c1ccc(Cl)cc1)S(=O)c1cccc[n+]1[O-],0.11 µg/mL
CCCCCc1nc2c(N)ncnc2n1[C@H]1C[C@H](O)[C@@H](CO)O1,30 µg/mL
CCCCCCCCCCc1cc2cn(Cc3ccccc3)c(=O)nc2o1,>200 µM
O=c1[nH]c(=O)n([C@@H]2O[C@H](CO)[C@@H](O)[C@@H]2O)cc1/C=C/Br,1023 µM
O=c1[nH]c(=O)n([C@@H]2O[C@H](CO)[C@@H](O)[C@@H]2O)cc1-c1cccs1,200 µg/mL
CCCCCCCCc1cc2cnc(=O)[nH]c2o1,>200 µM
Nc1nc(=O)n([C@@H]2O[C@H](CO)[C@@H](O)[C@@H]2F)cc1I,10 µg/mL
O=c1[nH]c(=O)n([C@H]2C[C@H](O)[C@@H](CO)O2)cc1C#CC#Cc1ccc([N+](=O)[O-])cc1,89 µM
O=C(COc1cccc2ccccc12)NN=Cc1ccccc1[N+](=O)[O-],100 µg/mL
Nc1nc2c(ncn2COCCO)c(=O)[nH]1,250 µg/mL
Cc1ccc(C)c(C(C)S(=O)(=O)c2c(C)ccc[n+]2[O-])c1,38 µg/mL
Nc1ncnc2c1ncn2C[C@H]1COP(=O)(O)CO1,115 µM
CCCCCCCCCCCc1cc2cn(COCCO)c(=O)nc2o1,132 µM
CC(C)c1ccc(CS(=O)(=O)c2cccc[n+]2[O-])cc1,9.4 µg/mL
Nc1ncnc2c1ncn2C[C@H](CO)OCP(=O)(O)O,>600 µM
CCCCCCCC(Sc1cccc[n+]1[O-])c1cc(C)c(C)c(C)c1,5 µg/mL
Nc1nc2c(ncn2C[C@H](CO)OCP(=O)(O)O)c(=O)[nH]1,17 µM
O=c1nc2[nH]ccc2cn1COCCO,>200 µM
O=C(O)CP(=O)(O)O,500 µM
Cc1nc2ccccn2c1NC(=S)Nc1ccccc1,>50 µg/mL

For reference, 12 entries again:

structure	result
O=C(OCCOCN1c2ccccc2C(=O)N(Cc2ccccc2)S1(=O)=O)c1ccccc1	17 µg/mL
O=c1[nH]c(=O)n([C@@H]2C[C@H](O)[C@@H](CO)O2)cc1-c1ccco1	110 µg/mL
Nc1nc2c(ncn2C[C@]2(CO)C[C@H]2CO)c(=O)[nH]1	37 µg/mL
O=C(O)P(=O)(O)O	667 µM
Cc1ccn2c(C3OCCS3)cnc2c1	>266 µM
CCCCCCc1cc2cn([C@H]3C[C@H](O)[C@@H](CO)O3)c(=O)nc2s1	>200 µM
Nc1ncnc2c1ncn2C[C@H](CF)OCP(=O)(O)O	>150 µM
Cc1cccn2c(CSCc3ccccc3)cnc12	8 µg/mL
C[C@@H](NC(=O)N1C(=O)C[C@@]1(Cc1ccccc1)C(=O)O)c1ccccc1	>200 µM
Nc1ccn(C[C@H]2COP(=O)(O)CO2)c(=O)n1	720 µM
CCCCCc1nc2c(N)ncnc2n1[C@H]1C[C@H](O)[C@@H](CO)O1	30 µg/mL
O=c1[nH]c(=O)n([C@@H]2O[C@H](CO)[C@@H](O)[C@@H]2O)cc1/C=C/Br	1023 µM